Assay [1] has as its system Plasmodium falciparum. The assay can be described thus: Selectivity ratio of Ki for Plasmodium falciparum dihydrofolate reductase N51I/C59R/S108N/I164L quadruple mutant expressed in Escherichia coli BL21(DE3)pLysS to Ki for wild type Plasmodium falciparum TM4/8.2 dihydrofolate reductase expressed in Escherichia coli BL21(DE3)pLysS.
The test system of assay [2] is Plasmodium falciparum. The assay can be described thus: Ratio of compound Ki to pyrimethamine Ki for competitive inhibition of Plasmodium falciparum dihydrofolate reductase N51I/C59R/S108N/I164L quadruple mutant expressed in Escherichia coli BL21(DE3)pLysS using dihydrofolate as substrate.

As to `Cl.Nc1nc(N)c(-c2cccc(Cl)c2)c(CCCOc2ccccc2)n1`, the figures for the Ratio Ki with Plasmodium falciparum [1] and in the assay with Plasmodium falciparum [2] were 4.83 and 0.003, respectively.

Regarding `Cl.Nc1nc(N)c(-c2ccccc2)c(CCCCCOc2ccccc2)n1`, the values for the Ratio Ki in the assay with Plasmodium falciparum [1] and with Plasmodium falciparum [2] were 12 and 0.009, respectively.

`Cl.Nc1nc(N)c(-c2ccccc2)c(CCCCOc2cccc(OCC(=O)O)c2)n1`: the Ratio Ki with Plasmodium falciparum [1] amounted to 2.08; with Plasmodium falciparum [2] it was 0.003.

For the origin of these results see ChEMBL document CHEMBL4406897 (Bioorg Med Chem, 2019).
